Measurements as given in article PMC5225317.
Construct, isoform or probe ends are uncertain for at least one entry.

Protein sequences, listed by entry. Tags and fused reporters are not part of them. Lines headed by an entry give the natural chain unless they say otherwise; changes in a name come on top.
UniProt Q5X982: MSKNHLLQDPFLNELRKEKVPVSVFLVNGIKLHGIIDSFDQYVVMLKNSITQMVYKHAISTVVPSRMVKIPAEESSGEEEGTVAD

Target: Hfq (Hfq6XHis) (Legionella pneumophila strain Paris) (UniProt Q5X982)
Assay: EMSA
Details: recombinant protein; residues 1-85; protein details: 6xHis; label: 33P-UTP internal label; probe letters rebuilt from the primers and the genome

Does “GGCGCAAUUCAUUUAGGAAAGGGUCUUGUAGUAAAUGAUUUUUAGACAUUGCCUACUCCUUGUUGUUAUUGUAAUUUUUAAAGGCAAAAACGGGUAUCUAACU [Anti-hfq sRNA]” bind?
Result: binds

Does “GGGAUAGGGUGUCGAAUAAAUAGUUAGAUACCCGUUUUUGCCUUUAAAAAUUACAAUAACAACAAGGAGUAGGCAAUGUCUAAAAAUCAUUUACUACAAGACCCUUUCCUAAAUGAAUUGCGCAAGGAAAAGGUACCUGUUUCAGUGUUCCUGGUCAAUGGUAUUAAAUUGCAUGGGAUAAUCGAUUCUUUUGAUCAAUAUGUGGUGAUGCUUAAAAACUCCAUAACCCAAAUGGUUUAUAAACACGCCAUUUCAACAGUUGUUCCUUCUCGAAUGGUCAAAAUUCCUGCUGAGGAAAGCUCUGGUGAGGAAGAAGGAACUGUGGCAGACUAAUCAA [hfq mRNA (full transcript)]” bind?
Result: binds
